Compound potency records, mixed from different reports. Data source: NIAID ChemDB in PubChem.

All rows: whole-cell or culture tests; species: Mycobacterium tuberculosis

Blank or dashed fields: not listed here. ECn is the concentration giving n% inhibition of infection, replication or growth. MIC bound comes from a single tested concentration. Inhibition is in % at the dose shown (toxicity tests: loss of growth or viability). Neighbouring rows are from separate reports. a–b is a range or a potency band.

structure | strain | tested at | read by | measure | value
Cc1c(N2CCN(C)C(c3ccccc3)C2)c([N+](=O)[O-])cc2c(=O)c(C(=O)O)cn(C3CC3)c12 | H37Rv | - | - | MIC | 0.84 µM
COc1ccc(CC2c3cc(OC)c(OC)c(OC)c3CC[N+]2(C)C)cc1Oc1ccc(CC2c3cc4c(c(OC)c3CC[N+]2(C)C)OCO4)cc1.[I-].[I-] | H37Rv | - | BACTEC | MIC bound | >12.5 µg/mL
CNc1ncnc2c1cnn2Cc1cn(COC[C@@H](O)CO)nn1 | H37Rv | - | BACTEC | EC50 | >12.5 µg/mL
Cc1cc(C)c2c(=O)n(CC(O)CN3CCc4ccccc4C3)sc2n1 | H37Rv | - | - | MIC | >12.5 µg/mL
O=C1CN(CN2CCCCC2)C(=O)CN1CN1CCCCC1 | H37Rv | 12.5 µg/mL | BACTEC | inhibition | 0%
CCCCNC(=O)CN1C(C(C)=O)=C(O)c2c(C)cc(C)nc2S1(=O)=O | H37Rv | - | - | MIC | >12.5 µg/mL
N/C(=N\N=C\c1ccc([N+](=O)[O-])cc1)c1ccccn1 | H37Rv | - | - | MIC | >256 µg/mL
CN1C(=O)N(C)C(O)C1O | H37Rv | - | BACTEC | MIC bound | >12.5 µg/mL
CO[C@H]1/C=C/O[C@@]2(C)Oc3c(C)c(O)c4c(O)c(c5c(c4c3C2=O)NC2(CCN(CC(C)C)CC2)N=5)=NC(=O)/C(C)=C\C=C\[C@H](C)[C@H](O)[C@@H](C)[C@@H](O)[C@@H](C)[C@H](OC(C)=O)[C@@H]1C | N-2 | - | - | MIC | 1.8 µg/mL
Cc1cc(C)c2c(=O)n(CC(N)=O)sc2n1 | H37Rv | 12.5 µg/mL | - | inhibition | 24%
N/C(COc1cccc(Cl)c1)=N/NC(=O)c1ccncc1 | ATCC 35820 (streptomycin-resistant) | - | - | MIC | 3.12 µg/mL
Cc1ccc(/C=N/N=C(/N)c2ccccn2)c(C)c1 | H37Rv | - | - | MIC | 16 µg/mL
C/C(=C1\NC(=S)NC1=O)c1ccccc1 | H37Rv | 6.25 µg/mL | BACTEC | inhibition | 0%
O=C(c1ccccc1)c1c(CO[N+](=O)[O-])n([O-])c2ccccc2[n+]1=O | H37Rv | - | BACTEC | MIC | ≥12.5 µg/mL
CCCCCCCCCN1C(=O)CC(NCCCCCCC)C1=O | H37Ra | - | - | MIC | ≤20 µg/mL
COc1ncnc2c1cnn2COC[C@@H](O)CO | H37Rv | 12.5 µg/mL | BACTEC | inhibition | 0%
CC(C)=CCC1=C(OC2OC(CO)C(O)C(O)C2O)C(=O)c2ccccc2C1=O | H37Rv | - | BACTEC | MIC bound | ≤128 µg/mL
Nc1ncnc2c1cnn2COC[C@@H](O)CO | H37Rv | - | BACTEC | EC50 | >12.5 µg/mL
CO[C@H]1/C=C/O[C@@]2(C)Oc3c(C)c(OC(C)=O)c4c(c3C2=O)C(=O)C=C(NC(=O)/C(C)=C\C=C\[C@H](C)[C@H](O)[C@@H](C)[C@@H](O)[C@@H](C)[C@H](OC(C)=O)[C@@H]1C)C4=O | TAC-R | - | - | MIC | 0.03 µg/mL
O=C1C=CC(=O)N1c1ccc(N2CCCCC2)cc1 | H37Ra | - | - | MIC | ≤20 µg/mL
O=C1NNC=Nc2nc3c(cc21)CCCC3 | H37Rv | - | BACTEC | MIC | ≥12.5 µg/mL
C[C@H]1COc2c(N3CCN(C)CC3)c(F)cc3c(=O)c(C(=O)O)cn1c23 | 001-013 (drug-resistant) | - | - | MBC | 1.5 µg/mL
CN(C)c1ncnc2c1cnn2COC[C@@H](O)CO | H37Rv | - | BACTEC | EC50 | >12.5 µg/mL
Clc1ccc(CNc2ccccc2-n2ccnc2)cc1 | 103471 | - | - | MIC | 8 µg/mL
Cc1c(N2C[C@@H](C)O[C@@H](C)C2)c([N+](=O)[O-])cc2c(=O)c(C(=O)O)cn(C3CC3)c12 | H37Rv | - | - | MIC | 0.97 µM
O=C1NC(=S)N/C1=C\c1c(Cl)cccc1Cl | H37Rv | 6.25 µg/mL | BACTEC | inhibition | 0%
O=[N+]([O-])c1ccc(CS(=O)(=O)c2ccccc2)o1 | H37Rv | 12.5 µg/mL | BACTEC | inhibition | 47%
N#Cc1ccc(/C=N/N=C(\N)c2ccccn2)cc1 | H37Rv | - | - | MIC | 256 µg/mL
CSc1ccc(C2C(C(=O)Nc3ccc([N+](=O)[O-])cc3)=C(C)NC(C)=C2C(=O)Nc2ccc([N+](=O)[O-])cc2)cc1 | H37Rv | - | - | EC50 | <2.5 µg/mL
N/C(COc1ccc(Cl)cc1)=N/NC(=O)c1ccncc1 | ATCC 35822 (isoniazid-resistant) | - | - | MIC | 100 µg/mL
O=C1CCCCC(=O)NCCCCCCN1 | H37Rv | 6.25 µg/mL | resazurin | inhibition | 24%
NC1CN(c2c(F)cc3c(=O)c(C(=O)O)cn(C4CC4)c3c2Cl)CC12CC2 | 40 (RFP-susceptible) | - | - | MIC | 0.1 µg/mL
COc1cc(C)c(/C=C2/NC(=S)NC2=O)cc1C | H37Rv | - | BACTEC | EC50 | >6.25 µg/mL
CC(C)Cc1ccc(C(=O)CCC(=O)NC[C@H]2CN(c3ccc(N4CCCC4)c(F)c3)C(=O)O2)cc1 | ATCC 27294 | - | - | MIC | 8 µg/mL
Cc1ccc(OC/C(N)=N\NC(=O)c2ccncc2)cc1 | H37Rv | - | - | MIC | 6.25 µg/mL
Nc1c(Cl)c(Cl)c2c([nH]c(=O)c3cc(Cl)ccc32)c1Cl | H37Rv | 12.5 µg/mL | BACTEC | inhibition | 5%
Cc1ccc(/C=C2/NC(=S)NC2=O)cc1 | H37Rv | - | BACTEC | EC50 | >6.25 µg/mL
COc1cccc(/C=N/N=C(\N)c2ccccn2)c1OC | H37Rv | - | - | MIC | 256 µg/mL
Cc1cc(C)c2c(=O)n(CC(O)CN3CCN(CCO)CC3)sc2n1 | H37Rv | - | - | EC50 | >12.5 µg/mL
CCCCCCN1C(=O)C=CC1=O | Clinical isolate (isoniazid-resistant) | - | - | MIC | ≤20 µg/mL
NC[C@H]1O[C@H](O[C@H]2[C@H](O)[C@@H](O[C@H]3O[C@H](CO)[C@@H](O)[C@H](N)[C@H]3O)[C@H](N)C[C@@H]2N)[C@H](O)[C@@H](O)[C@@H]1O | 90-0241 (drug-susceptible) | - | - | MIC | 2 µg/mL
O=C1NC(=S)N/C1=C/c1ccc(C(F)(F)F)cc1 | H37Rv | 6.25 µg/mL | BACTEC | inhibition | 92%
O=c1c2c(-c3cc(-c4ccccc4)nc4[nH]n(-c5ccccc5)c(=O)c34)cc(-c3ccccc3)nc2[nH]n1-c1ccccc1 | H37Rv | - | BACTEC | MIC | ≥12.5 µg/mL
O=C1NC(=S)N/C1=C/c1ccc(Cl)cc1 | H37Rv | 6.25 µg/mL | BACTEC | inhibition | 86%
CC1=C(C(=O)Nc2ccc([N+](=O)[O-])cc2)C(c2ccccc2Cl)C(C(=O)Nc2ccc([N+](=O)[O-])cc2)=C(C)N1 | H37Rv | - | - | EC50 | <2.5 µg/mL
COc1cc(/C=N/N=C(\N)c2ccccn2)cc(OC)c1OC | H37Rv | - | - | MIC | >256 µg/mL
CC(=O)OCCCn1nc(COC(N)=O)c2c1CC(C)CC2=O | H37Rv | - | resazurin | MIC bound | >6.25 µg/mL
C[C@@H]1CN(c2c(F)c(N)c3c(=O)c(C(=O)O)cn(C4CC4)c3c2F)C[C@H](C)N1 | 92-0492 MDR (INH RIF-resistant) | - | - | MIC | 0.2 µg/mL
c1ccc(-c2ccc(CNc3ccccc3N3CCSCC3)cc2)cc1 | 103471 | - | - | MIC | >16 µg/mL
O=C1NC(=S)N/C1=C/c1ccccc1Cl | H37Rv | 6.25 µg/mL | BACTEC | inhibition | 20%
CC[C@H]1OC(=O)[C@H](C)[C@@H](O[C@H]2C[C@@](C)(OC)[C@@H](O)[C@H](C)O2)[C@H](C)[C@@H](O[C@@H]2O[C@H](C)C[C@H](N(C)C)[C@H]2O)[C@](C)(OC)C[C@@H](C)C(=O)[C@H](C)[C@@H](O)[C@]1(C)O | 90-0233 (INH SM-RS) | - | - | MIC | 5 µg/mL
Cn1c(=O)nc2n(-c3ccc(Cl)cc3Cl)c3ccccc3nc-2c1=O | H37Rv | 12.5 µg/mL | BACTEC | inhibition | 87%
Cc1ccc(/C=N/N=C(/N)c2ccccn2)cc1 | H37Rv | - | - | MIC | 16 µg/mL
CCCCCCCCNC1CC(=O)N(CCCCCCCC)C1=O | H37Ra | - | - | MIC | ≤20 µg/mL
O=C1NC(=S)N/C1=C/c1ccc(-c2ccccc2)cc1 | H37Rv | 6.25 µg/mL | BACTEC | inhibition | 97%
CCN(CC)c1ccc2c(c1)Oc1ccc(N(C(C)=O)c3ccccc3)cc1C21OC(=O)c2ccccc21 | H37Rv | 6.25 µg/mL | resazurin | inhibition | 25%
CN1CCN(c2cccc(NCc3ccc(Cl)cc3)c2)CC1 | 103471 | - | - | MIC | >16 µg/mL
NNC(=O)c1ccc(C(=O)NN)o1 | H37Rv | - | BACTEC | MIC bound | >12.5 µg/mL
CC(C)Cc1ccc(C(=O)CCC(=O)NC[C@H]2CN(c3ccc(-n4cncn4)c(F)c3)C(=O)O2)cc1 | 10 clinical isolates sensitive | - | - | MIC | 2–4 µg/mL
COc1ccc(CC2C3=C(CCCC3)CCN2c2c([N+](=O)[O-])cc3c(=O)c(C(=O)O)cn(C(C)(C)C)c3c2C)cc1 | H37Rv | - | - | MIC | >22.34 µM
c1ccc(-c2ccc(CNc3cccc(-n4ccnc4)c3)cc2)cc1 | 103471 | - | - | MIC | 4 µg/mL
Cc1cc(OC(=O)Nc2ccc(C)c([N+](=O)[O-])c2)c(Br)cc1Cl | H37Rv | 12.5 µg/mL | BACTEC | inhibition | 31%
c1ccc(-c2ccc(CNc3cccc(N4CCSCC4)c3)cc2)cc1 | 103471 | - | - | MIC | >16 µg/mL
NCCCCC(C(=O)NC(CO)C(=O)O)N(C(=O)OCc1ccccc1)C(=O)OCc1ccccc1 | H37Rv | - | BACTEC | MIC | ≥12.8 µg/mL
Cc1c(N2CCC(n3c(=O)[nH]c4cc(Cl)ccc43)CC2)c([N+](=O)[O-])cc2c(=O)c(C(=O)O)cn(-c3ccc(F)cc3F)c12 | H37Rv | - | - | MIC | >20.49 µM
CCCCCCCCCN1C(=O)CC(NCCCCCCCC)C1=O | Clinical isolate (isoniazid-resistant) | - | - | MIC | ≤20 µg/mL
Cc1cc(-c2cc3c(cc2F)c(=O)c(C(=O)O)cn3C2CC2)cc(C)n1 | 1773-6 | - | - | MIC | 1 µg/mL
COc1ccc2cc1Oc1cc3c(cc1OC)CC[N+](C)(C)C3Cc1ccc(cc1)Oc1c(OC)c(OC)cc3c1C(C2)[N+](C)(C)CC3.[I-].[I-] | H37Rv | - | BACTEC | MIC | ≥128 µg/mL
COC(=O)c1ccc(/C=C2/NC(=S)NC2=O)cc1 | H37Rv | - | BACTEC | EC50 | >6.25 µg/mL
O=C1NOCC1NCc1c(O)ccc2ccccc12 | H37Rv | 12.5 µg/mL | BACTEC | inhibition | 83%
CO[C@H]1/C=C/O[C@@]2(C)Oc3c(C)c(O)c4c(O)c(c(/C=N/N5CCN(C)CC5)c(O)c4c3C2=O)NC(=O)/C(C)=C\C=C\[C@H](C)[C@H](O)[C@@H](C)[C@@H](O)[C@@H](C)[C@H](OC(C)=O)[C@@H]1C | H37Rv | - | - | MIC | 0.4 µg/mL
Cc1cc(C)c2c(=O)n(CC(O)CNc3ccc4c(c3)OCO4)sc2n1 | H37Rv | - | - | EC50 | <12.5 µg/mL
Cc1c(N2CC3CCCNC3C2)c(F)cc2c(=O)c(C(=O)O)cn([C@@H]3C[C@@H]3F)c12 | 41 (RFP-susceptible) | - | - | MIC | <0.003 µg/mL
CC1=C(C(=O)Nc2ccc([N+](=O)[O-])cc2)C(c2ccc(Cl)cc2)C(C(=O)Nc2ccc([N+](=O)[O-])cc2)=C(C)N1 | H37Rv | - | - | EC50 | <2.5 µg/mL
NNC(=O)c1ccncc1 | 90-0240 (drug-susceptible) | - | - | MIC | 0.04 µg/mL
CCCCCCCCCN1C(=O)CC(SCCNC(=O)C2CC2)C1=O | H37Ra | - | - | MIC | ≤20 µg/mL
N/C(=N/N=C/c1ccccc1)c1ccccn1 | H37Rv | - | - | MIC | 32 µg/mL
CC(C)(C)c1ccc(C(=O)CCC(=O)NC[C@H]2CN(c3ccc(-n4cncn4)c(F)c3)C(=O)O2)cc1 | 10 clinical isolates resistant | - | - | MIC | 2–4 µg/mL
CC1=C(C(=O)Nc2ccc(Cl)cc2)C(c2cccc([N+](=O)[O-])c2)C(C(=O)Nc2ccc(Cl)cc2)=C(C)N1 | H37Rv | - | - | EC50 | >2.5 µg/mL
CCCCCCCCCCNC1CC(=O)N(CCCCCCCCCC)C1=O | H37Ra | - | - | MIC | ≤20 µg/mL
CCC1CN(c2c(F)cc3c(=O)c(C(=O)O)cn([C@@H]4C[C@@H]4F)c3c2OC)CCN1 | 45 (RFP-resistant) | - | - | MIC | 4 µg/mL
CCCCCCCCCN1C(=O)CC(C)(SCCO)C1=O | Clinical isolate (isoniazid-resistant) | - | - | MIC | ≤20 µg/mL
Cc1ncc(N)nc1C | H37Rv | 12.5 µg/mL | BACTEC | inhibition | 5%
CC1(C)C2CCC(CN3C(=O)c4ccccc4C3=O)C1C2 | Clinical isolate (isoniazid-resistant) | - | - | MIC | ≤20 µg/mL
O=C(CCC(=O)c1ccccc1)NC[C@H]1CN(c2ccc(-n3cncn3)c(F)c2)C(=O)O1 | ATCC 27294 | - | - | MIC | 1 µg/mL

A second listing of 6 rows from above:

structure,strain,tested at,read by,measure,value
CC1=C(C(=O)Nc2ccc([N+](=O)[O-])cc2)C(c2ccccc2Cl)C(C(=O)Nc2ccc([N+](=O)[O-])cc2)=C(C)N1,H37Rv,-,-,EC50,<2.5 µg/mL
Cc1c(N2C[C@@H](C)O[C@@H](C)C2)c([N+](=O)[O-])cc2c(=O)c(C(=O)O)cn(C3CC3)c12,H37Rv,-,-,MIC,0.97 µM
COc1cc(C)c(/C=C2/NC(=S)NC2=O)cc1C,H37Rv,-,BACTEC,EC50,>6.25 µg/mL
NNC(=O)c1ccncc1,90-0240 (drug-susceptible),-,-,MIC,0.04 µg/mL
COc1ccc2cc1Oc1cc3c(cc1OC)CC[N+](C)(C)C3Cc1ccc(cc1)Oc1c(OC)c(OC)cc3c1C(C2)[N+](C)(C)CC3.[I-].[I-],H37Rv,-,BACTEC,MIC,≥128 µg/mL
CCCCNC(=O)CN1C(C(C)=O)=C(O)c2c(C)cc(C)nc2S1(=O)=O,H37Rv,-,-,MIC,>12.5 µg/mL